Experimental data: paper PMC11459959, “Discovery of new acetamide derivatives of 5-indole-1,3,4-oxadiazol-2-thiol as inhibitors of HIV-1 Tat-mediated viral transcription” (Antimicrobial Agents and Chemotherapy, 2024)

Tests used:
[1] = tested on: NRTI-resistant HIV-1 strain 7396; format: cell-based; settings: NRTI-resistant 7396, TZM-bl
Protocol: (§1) Fig 7 (A–C) TZM-bl cells (1 × 10^4 cells/well) cultured in a 96-well plate were treated with fivefold serial dilutions of the indicated compound or ARV for 1 h before infection with the HIV-1NL4-3 or ARV-resistant HIV-1 strains at an MOI of 1, respectively. At 48 h after infection, the EC50 values were determined using an F-Luc activity. The symbols represent the fold-change values of EC50 against each mutant virus relative to the wild-type (WT) virus. (D) PBMCs (5 × 10^4 cells/well) were infected with the HIV-1NL4-3 and PIs-resistant HIV-1 strain at an MOI of 0.1, respectively. Subsequently, the PBMCs were treated with 10-fold serial dilutions of the indicated compounds or PI. At 3 days after infection, the EC50 values on the viral replication were determined using a p24 […] assay kit. (E) The inhibitory kinetics for the WT and ARV-resistant viruses. TZM-bl cells infected with WT or ARV-resistant viruses were cultured upon fivefold serial dilutions of each compound for 2 days and the infectivity was determined using an F-Luc activity.
(§2) The Tzm-bl-derived dual Tat reporter; TZM-bl/Tat/Rluc (bl-DTR) cells were established from TZM-bl cells using two Dox-inducible lentiviral expression cassettes cloned with Flag-tagged Tat86 and the R-Luc gene, as described in our previous study ([11]). TZM-bl, A3.01, J1.1, and J-Lat 6.3 cells as well as the HIV-1 molecular clone pNL4-3, pNL(AD8), ARV-resistant HIV-1 strains, and HIV-1NL43-IRES-eGFP (pBR43IeG-nef^+, gifted by Dr. Frank Kirchhoff) ([52]) were provided by the National Institute of Health HIV Reagent Program (NIH, Bethesda, MD, USA). HeLa (CCL-2) and 293T (CRL-3216) cell lines were purchased from the American Type Culture Collection (ATCC, Manassas, VA, USA). The bl-DTR, TZM-bl, HeLa, and 293T cells were cultured in Dulbecco’s modified Eagle’s medium supplemented with 1% penicillin–streptomycin and 10% (vol/vol) heat-inactivated fetal bovine serum (all from Gibco-BRL, Gaithersburg, MD, USA), and 1 µg/mL of puromycin and 200 µg/mL of zeocin were additionally supplemented for the bl-DTR cells. PBMCs were purchased from AllCells (Alameda, CA, USA) and cultured as previously described ([12]). The information on ARV-resistant HIV-1 strains was described in previous reports as follows: NNRTI-resistant 12241 and 12243 ([53]); NRTI-resistant 7396, 7406, and 7407 ([54]); INSTI-resistant 11847 and 11849 ([55], [56]); and PI-resistant 11800 and 11803 ([57]). Each molecular HIV-1 clone was transfected to 293T cells, as previously described ([58]), to obtain infectious HIV-1 particles. Virus-containing cell culture supernatants were collected 3 days after transfection, and filtered through a 0.45-µm membrane filter (Millipore Sigma, Burlington, MA, USA) to remove cell debris. The viral titration was performed as described previously ([59]) with some minor modifications. In brief, 1 × 10^4 TZM-bl cells seeded in 96-well plates were infected with 200 µL of virus-containing medium diluted serially twofold. The incubation was for 2 days and the experiment was performed in triplicate; the infection time minimized the virus spread ([59]). The titration of the infectious viral particles was performed with a ß-Gal staining assay using the ßeta-Galactosidase Staining Kit (Mirus Bio, Madison, WI, USA) following the manufacturer’s protocols. In brief, the infected cells were washed with phosphate-buffered saline (PBS) and fixed using a Cell Fixative Working solution. The cells were washed with PBS and stained using the Cell Staining Working Solution containing X-gal. The infected blue-colored cells were counted under a microscope (100× magnification). The infectious virus titer was determined as a mean value of blue-colored cells count × dilution factor and used for determining the multiplicity of infection (MOI) in each infection experiment.

[2] = tested on: NRTI-resistant HIV-1 strain 7406; format: cell-based; settings: NRTI-resistant 7406, TZM-bl
Protocol: as §1, §2

[3] = tested on: NRTI-resistant HIV-1 strain 7407; format: cell-based; settings: NRTI-resistant 7407, TZM-bl
Protocol: as §1, §2

[4] = tested on: INSTI-resistant HIV-1 strain 11847; format: cell-based; settings: INSTI-resistant 11847, TZM-bl
Protocol: as §1, §2

[5] = tested on: INSTI-resistant HIV-1 strain 11849; format: cell-based; settings: INSTI-resistant 11849, TZM-bl
Protocol: as §1, §2

[6] = tested on: NNRTI-resistant HIV-1 strain 12241; format: cell-based; settings: NNRTI-resistant 12241, TZM-bl
Protocol: as §1, §2

[7] = tested on: NNRTI-resistant HIV-1 strain 12243; format: cell-based; settings: NNRTI-resistant 12243, TZM-bl
Protocol: as §1, §2

[8] = tested on: PI-resistant HIV-1 strain 11800; format: cell-based; settings: PI-resistant 11800, TZM-bl
Protocol: as §1, §2

[9] = tested on: PI-resistant HIV-1 strain 11803; format: cell-based; settings: PI-resistant 11803, TZM-bl
Protocol: as §1, §2

[10] = tested on: PI-resistant HIV-1 strain 11800; format: cell-based; settings: PI-resistant 11800, PBMCs
From the text: as §2
(§3) The inhibitory effects of the compounds on viral replication were determined with some minor modifications, as previously described ([12], [62]). […] PBMCs (4 × 10^5) pre-activated with PHA-M for 3 days were washed with fresh media to remove excess PHA-M and subsequently infected with HIV-1NL4-3 or HIV-1AD8 or PIs-resistant HIV-1 strains as A3.01 infection. After infection, the infectious media were replaced with fresh media supplemented with international 10 units (IU)/mL of IL-2 and the indicated compounds. At 72 h after infection, the inhibitory effect of the compounds on viral replication was determined by measuring the p24 amount, an HIV capsid protein, using an HIV-1 p24 […] kit (PerkinElmer, Waltham, MA, USA). Cell viability was determined as described above. The inhibitory effects on provirus reversing in J1.1 and J-Lat 6.3 cells were determined as previously described ([12], [41], [63]) with some minor modifications.

[11] = tested on: PI-resistant HIV-1 strain 11803; format: cell-based; settings: PI-resistant 11803, PBMCs
From the text: as §2, §3

[12] = tested on: NRTI-resistant HIV-1 strains; settings: range over three NRTI-resistant strains, relative to wild type, TZM-bl

SMILES | FC (mutant EC50 / WT EC50) [1] | FC (mutant EC50 / WT EC50) [2] | FC (mutant EC50 / WT EC50) [3] | FC (mutant EC50 / WT EC50) [4] | FC (mutant EC50 / WT EC50) [5] | FC (mutant EC50 / WT EC50) [6] | FC (mutant EC50 / WT EC50) [7] | FC (mutant EC50 / WT EC50) [10] | FC (mutant EC50 / WT EC50) [11] | further results
Nc1nc(NC2CC2)c2ncn([C@H]3C=C[C@@H](CO)C3)c2n1 [ABC, abacavir] | 1.83 | >8.17 | >8.17 |  |  |  |  |  |  | 
Cc1cn([C@H]2C[C@H](N=[N+]=[N-])[C@@H](CO)O2)c(=O)[nH]c1=O [AZT, zidovudine] | 149.27 |  | >909.09 |  |  |  |  |  |  | 
Nc1ccn([C@@H]2CS[C@H](CO)O2)c(=O)n1 [Compound 3TC, lamivudine] | 2.96 | >81.3 | >81.3 |  |  |  |  |  |  | 
Cc1[nH]c2ccc(-c3nnc(SCC(=O)N4CCCCC4)o3)cc2c1C [Compound 9, 2-((5-(2,3-Dimethyl-1H-indol-5-yl)-1,3,4-oxadiazol-2-yl)thio)-1-(piperidin-1-yl)ethan-1-one] | 0.52 | 0.65 | 0.52 | 0.56 | 0.58 | 0.56 | 0.49 | 5.4 | 2.6 | FC (mutant EC50 / WT EC50) [8]: 0.63; FC (mutant EC50 / WT EC50) [9]: 0.56; fold change of EC50 against NRTI-resistant viruses [12]: 0.52–0.93
Cc1[nH]c2ccc(-c3nnc(SCC(=O)N4CCCC4)o3)cc2c1C [Compound 13, 2-((5-(2,3-Dimethyl-1H-indol-5-yl)-1,3,4-oxadiazol-2-yl)thio)-1-(pyrrolidin-1-yl)ethan-1-one] | 0.76 | 0.80 | 0.93 | 0.69 | 1.16 | 0.99 | 0.90 | 7.8 | 2.7 | FC (mutant EC50 / WT EC50) [8]: 0.64; FC (mutant EC50 / WT EC50) [9]: 0.80; fold change of EC50 against NRTI-resistant viruses [12]: 0.52–0.93
CC(C)CN(C[C@@H](O)[C@H](Cc1ccccc1)NC(=O)O[C@H]1CO[C@H]2OCC[C@H]21)S(=O)(=O)c1ccc(N)cc1 [DRV, darunavir] |  |  |  |  |  |  |  | >1000 | >1000 | 
C[C@@H]1CCO[C@H]2Cn3cc(C(=O)NCc4ccc(F)cc4F)c(=O)c(O)c3C(=O)N12 [DTG, dolutegravir, reference compound] |  |  |  | 13.75 | 9.92 |  |  |  |  | 
O=C1Nc2ccc(Cl)cc2[C@@](C#CC2CC2)(C(F)(F)F)O1 [EFV, efavirenz, reference compound] |  |  |  |  |  | >1000 | >1000 |  |  | 
Cc1c(O)cccc1C(=O)N[C@@H](CSc1ccccc1)[C@H](O)CN1C[C@H]2CCCC[C@H]2C[C@H]1C(=O)NC(C)(C)C [NFV, nelfiravir] |  |  |  |  |  |  |  | >1000 | >1000 | 
Cc1ccnc2c1NC(=O)c1cccnc1N2C1CC1 [NVP, nevirapine, reference compound] |  |  |  |  |  | >1000 | 398.5 |  |  | 
Cc1nnc(C(=O)NC(C)(C)c2nc(C(=O)NCc3ccc(F)cc3)c(O)c(=O)n2C)o1 [RAL, raltegravir, reference compound] |  |  |  | >1000 | >1000 |  |  |  |  | 
CC(C)(C)NC(=O)[C@@H]1C[C@@H]2CCCC[C@@H]2CN1C[C@@H](O)[C@H](Cc1ccccc1)NC(=O)[C@H](CC(N)=O)NC(=O)c1ccc2ccccc2n1 [SQV, sequinavir] |  |  |  |  |  |  |  | 0.68 | 150.93 | 

Like-named read-outs stand apart in the source and are kept apart here.
